Measured values from several laboratories, pooled; numbers as filed in NIAID ChemDB.

All rows: growth or infection tests; agent: Mycobacterium tuberculosis

Neighbouring rows are from separate reports. ECn is the concentration giving n% inhibition of infection, replication or growth. Inhibition is in % at the dose shown (toxicity tests: loss of growth or viability). MIC bound comes from a single tested concentration. A number after MIC or MFC names an inhibition level or a share of isolates. An empty or dashed field is not shown.

SMILES,endpoint,dose,method,strain or isolate,value
NNC(=O)c1ccncc1,MIC,-,-,2S,0.1 µg/mL
C[C@H]1COc2c(N3CCN(C)CC3)c(F)cc3c(=O)c(C(=O)O)cn1c23,MBC90,-,-,MDR,4 µg/mL
COc1cccc2c1[n+]([O-])c1cccc(O)c1[n+]2[O-],MIC,-,BACTEC,H37Rv,0.8 µg/mL
CC(Br)C(=O)Nc1ccc(S(=O)(=O)NCCO)cc1,MIC,-,-,H37Rv,100 µg/mL
OC[C@H]1O[C@@H](c2ccc(O)cc2O)[C@H](O)[C@@H]1O,inhibition,12.5 µg/mL,BACTEC,H37Rv,3%
CN[C@@H]1[C@H](O[C@H]2[C@H](O[C@H]3[C@H](O)[C@@H](O)[C@H](N=C(N)N)[C@@H](O)[C@@H]3N=C(N)N)O[C@@H](C)[C@]2(O)C=O)O[C@@H](CO)[C@H](O)[C@H]1O,MIC,-,-,ATCC 35827 (kanamycin-resistant),8 µg/mL
NCC[C@H](O)C(=O)N[C@@H]1C[C@H](N)[C@@H](O[C@H]2O[C@H](CN)[C@@H](O)[C@H](O)[C@H]2O)[C@H](O)[C@H]1O[C@H]1O[C@H](CO)[C@@H](O)[C@H](N)[C@H]1O,MIC,-,broth dilution / resazurin,MDR16,8 µg/mL
CO[C@H]1/C=C/O[C@@]2(C)Oc3c(C)c(O)c4c(O)c(c5c(c4c3C2=O)NC2(CCN(CC(C)C)CC2)N=5)=NC(=O)/C(C)=C\C=C\[C@H](C)[C@H](O)[C@@H](C)[C@@H](O)[C@@H](C)[C@H](OC(C)=O)[C@@H]1C,MIC,-,-,Strain 119 (H526Y),32 µg/mL
CO[C@H]1/C=C/O[C@@]2(C)Oc3c(C)c(O)c4c(O)c(c5c(c4c3C2=O)NC2(CCN(CC(C)C)CC2)N=5)=NC(=O)/C(C)=C\C=C\[C@H](C)[C@H](O)[C@@H](C)[C@@H](O)[C@@H](C)[C@H](OC(C)=O)[C@@H]1C,MIC,-,-,Isolate 900233 drug-susceptible,0.125 µg/mL
O=NNc1ccc([N+](=O)[O-])cn1,inhibition,12.5 µg/mL,BACTEC,H37Rv,-2%
N#C/C(=C/c1c[nH]c2ccccc12)C(N)=O,MIC,-,-,H37Rv,>100 µg/mL
CCOC(=O)Nc1cc2c(c(/N=C/N(C)C)n1)N=C(c1ccccc1)CO2,EC50,-,-,H37Rv,>12.5 µg/mL
COc1ccc(CCNCCNC(C)(C)CO)cc1,MIC,-,-,-,50 µM
OC(c1ccccc1)(c1ccccc1)c1nc2ccccc2s1,MIC,-,-,H37Rv,>100 µg/mL
CCOC(=O)Nc1cc(NC/C(=N/O)c2ccc([N+](=O)[O-])cc2)c([N+](=O)[O-])c(N)n1,EC50,-,-,H37Rv,>12.5 µg/mL
C[C@H](NCCNCC(c1ccccc1)c1ccccc1)C1CCCCC1,MIC,-,-,-,25 µM
NC1=C(O)C(=O)C(c2c[nH]c3ccc(OCc4ccccc4)cc23)O1,MIC bound,-,BACTEC,H37Rv,>12.5 µg/mL
O=C(O)c1ccc2c(c1)OCO2,MIC,-,-,H37Rv,50 µg/mL
CC(C)CCC[C@@H](C)[C@H]1CC[C@H]2[C@@H]3CC[C@H]4C[C@@H](CCC=C(c5cc(Cl)c(O)c(C(=O)O)c5)c5cc(Cl)c(O)c(C(=O)O)c5)CC[C@]4(C)[C@H]3CC[C@]12C,inhibition,12.5 µg/mL,BACTEC,H37Rv,7%
NC1CCN(c2nc3c(cc2F)c(=O)c(C(=O)O)cn3-c2ccc(F)cc2F)C1,MIC50,-,-,DRUG-SUS,>8 µg/mL
NC(=O)c1cnccn1,MIC,-,-,Isolate 10611 monodrug-resistant,>300 µg/mL
N=C1C=CC(=NCc2ccc(N)cc2)C=C1,MIC bound,-,BACTEC,H37Rv,>12.5 µg/mL
CN1c2ccccc2CCC1CCc1ccc2c(c1)OCO2,MIC,-,-,MT7,169 µg/mL
c1ccc(CCCCNCCNCCc2ccccc2)cc1,MIC,-,-,-,50 µM
CCOc1cccc(C(=O)O)c1,MIC,-,-,H37Rv,50 µg/mL
COc1ccc(OC)c(CCNCCNC2CCCCCCC2)c1,MIC,-,-,-,50 µM
COc1ccc2c(c1)[n+]([O-])c(/C(C)=N/NC(=O)c1ccccc1O)c(C)[n+]2[O-],MIC,-,-,EMB-R,6.3 µg/mL
O=[N+]([O-])c1ccc2c(c1)-c1ccccc1S2(=O)=O,MIC,-,-,H37Rv,>100 µg/mL
CCCCCc1cc(OC)c2ccccc2n1,MIC,-,-,MT6,6.25 µg/mL
CN(C(=O)CCC(=O)O)c1ccc(I)cc1,MIC,-,-,H37Rv,100 µg/mL
CCOC(=O)Nc1cc(NC(c2ccccc2)c2ccccc2)c2[nH]c(=O)cnc2n1,EC50,-,-,H37Rv,<12.5 µg/mL
CCCCCCCCCCCNCCNC1CCCCC1C,MIC,-,-,-,50 µM
O=c1nc(SCc2ccccc2[N+](=O)[O-])c2[nH]cnc2[nH]1,MIC,-,-,H37Ra,16 µg/mL
Fc1ccccc1CNCCNC(c1ccccc1)c1ccccc1,MIC,-,-,-,50 µM
C[N+](C)(C)CCOP(=O)([O-])OP(=O)([O-])OCC1CCC(n2ccc(N)nc2=O)O1.[Li+],MIC bound,-,BACTEC,H37Rv,>12.5 µg/mL
c1ccc(N2c3ccccc3Sc3ccccc32)cc1,MIC,-,-,H37Rv,>100 µg/mL
CO[C@H]1/C=C/O[C@@]2(C)Oc3c(C)c(O)c4c(O)c(c(/C=N/N5CCN(C/C=C/c6ccccc6)CC5)c(O)c4c3C2=O)NC(=O)/C(C)=C\C=C\[C@H](C)[C@H](O)[C@@H](C)[C@@H](O)[C@@H](C)[C@H](OC(C)=O)[C@@H]1C,MIC,-,-,35 (rifampin-resistant),0.2 µg/mL
CO[C@H]1/C=C/O[C@@]2(C)Oc3c(C)c(O)c4c(O)c(c(/C=N/N5CCN(C)CC5)c(O)c4c3C2=O)NC(=O)/C(C)=C\C=C\[C@H](C)[C@H](O)[C@@H](C)[C@@H](O)[C@@H](C)[C@H](OC(C)=O)[C@@H]1C,MIC,-,-,TN994,16 µg/mL
CCOC(=O)Nc1cc(Cl)cc(NC(=O)OCC)n1,EC50,-,-,H37Rv,>12.5 µg/mL
COc1cc(CSc2nc(=O)[nH]c3nc[nH]c23)cc(OC)c1,inhibition,6.25 µg/mL,-,H37Rv,0%
C[C@@H]1CN(c2c(F)c(N)c3c(=O)c(C(=O)O)cn(C4CC4)c3c2F)C[C@H](C)N1,MIC90,-,-,Drug-resistant,0.125 µg/mL
c1cc2c3c(cccc3c1)CC2,MIC,-,-,H37Rv,>100 µg/mL
CC(C)c1ccc2c(c1)CC[C@H]1[C@](C)(CNCCNCCO)CCC[C@]21C,MIC,-,-,-,25 µM
CC(C)c1ccc2c(c1)CC[C@H]1[C@](C)(CNCCNC3CCCc4ccccc43)CCC[C@]21C,MIC,-,-,-,25 µM
CC(C)CCCC(C)C1CCC2C3CCC4CC(NC(=O)CNCCCSC(C)C)CCC4(C)C3CCC12C,MIC bound,-,resazurin,H37Rv,<6.25 µg/mL
O=C(O)C(O)Cn1ccnc1,MIC,-,-,H37Rv,>100 µg/mL
NNC(=O)c1ccncc1,MIC,-,resazurin,H37Rv,0.03 µg/mL
O=C1NC(=O)C(c2ccc(Br)c3ccccc23)=C1O,inhibition,12.5 µg/mL,BACTEC,H37Rv,20%
CCOC(=O)Nc1cc(NCC(=O)c2ccc(OC)cc2)c([N+](=O)[O-])c(N)n1,EC50,-,-,H37Rv,>12.5 µg/mL
Nc1ccc(CC(=O)O)cc1,MIC,-,-,H37Rv,>100 µg/mL
Oc1ccc(CCNCCNCCc2ccc(Cl)cc2Cl)cc1,MIC,-,-,-,50 µM
Cc1[nH]ccc(=O)c1OC(=O)C12CC3CC(CC(C3)C1)C2,inhibition,12.5 µg/mL,BACTEC,H37Rv,-5%
CCC(N)(CO)CO,MIC,-,-,H37Rv,100 µg/mL
CC[C@H]1OC(=O)[C@H](C)[C@@H](O[C@H]2C[C@@](C)(OC)[C@@H](O)[C@H](C)O2)[C@H](C)[C@@H](O[C@@H]2O[C@H](C)C[C@H](N(C)C)[C@H]2O)[C@](C)(O)C[C@@H](C)C(=O)[C@H](C)[C@@H](O)[C@]1(C)O,MIC,-,-,ATCC 35830,>8 µg/mL
CC(=O)Oc1cc(I)ccc1C(=O)O,MIC,-,-,H37Rv,100 µg/mL
CC(C)c1ccc2c(c1)CC[C@H]1[C@](C)(CNCCNC[C@@H]3CC[C@H]4C[C@@H]3C4(C)C)CCC[C@]21C,MIC,-,-,-,50 µM
O=C1c2cscc2C(=O)c2cscc21,inhibition,6.25 µg/mL,resazurin,H37Rv,100%
O=c1nc(SCc2cccnc2)c2[nH]cnc2[nH]1,MIC90,-,-,H37Rv,>6.25 µg/mL
CCCCC(CC)CN1CN(CC(CC)CCCC)CC(C)(NCCNCCc2ccc(F)cc2)C1,MIC,-,-,-,12.5 µM
COC(=O)c1ccc(C)c(-n2c(-c3ccccc3)nnc2-c2ccc(C)cc2)c1,MIC,-,-,H37Rv,>100 µg/mL
Cc1ccccc1Sc1ncccn1,MIC,-,-,H37Ra,>12.8 µg/mL
CCN(CC)c1ccc(N)c(NS(C)(=O)=O)c1,MIC,-,-,H37Rv,>100 µg/mL
COc1cccc(Sc2ncccn2)c1,MIC90,-,-,H37Rv,>6.25 µg/mL
O=[N+]([O-])c1cc(I)c(O)c(I)c1,MIC,-,-,H37Rv,100 µg/mL
CC(=O)NS(=O)(=O)c1ccc(N=Nc2c(O)n(-c3ccccc3)n(-c3ccccc3)c2=O)cc1,MIC,-,BACTEC,H37Rv,≥12.8 µg/mL
NCC[C@H](O)C(=O)N[C@@H]1C[C@H](N)[C@@H](O[C@H]2O[C@H](CN)[C@@H](O)[C@H](O)[C@H]2O)[C@H](O)[C@H]1O[C@H]1O[C@H](CO)[C@@H](O)[C@H](N)[C@H]1O,MIC,-,-,H37Rv,2.5 µg/mL
CC(=O)CC(=O)Nc1ccccc1,MIC,-,-,H37Rv,>100 µg/mL
Cn1ncc(=O)c(Cl)c1Cl,MIC bound,-,BACTEC,H37Rv,>6.25 µg/mL
COc1ccc(OC)c(CCNCCNCc2ccc(C(F)(F)F)cc2)c1,MIC,-,-,-,12.5 µM
CCOC(=O)C[N+]1(C)C2CCC1CC(OC(=O)C(CO)c1ccccc1)C2.[Cl-],MIC bound,-,BACTEC,H37Rv,>12.5 µg/mL
O=C1NC(=O)C(Cc2c[nH]c3ccccc23)N1,MIC,-,-,H37Rv,>100 µg/mL
CCC(=O)OC[n+]1ccc2c(C)c3[nH]c4ccc(OC)cc4c3c(C)c2c1,inhibition,6.25 µg/mL,resazurin,H37Rv,100%
CC(C)=CCC/C(C)=C/CNCCNC(C)(C)CC(C)(C)C,MIC,-,-,-,25 µM
CCCCCCCCCCCCCCCC(=O)OC,MIC,-,-,H37Rv,>100 µg/mL
Nc1cc([N+](=O)[O-])c2[nH]c(=O)c3ccccc3c2c1,MIC,-,-,H37Rv,1.6 µg/mL
NC(=O)NC1NC(=O)NC1=O,MIC,-,-,H37Rv,50 µg/mL
O=c1oc2c(ccc3c(O)cccc32)c2c1CCCC2,MIC bound,-,BACTEC,H37Rv,>12.5 µg/mL
O=c1nc(SCc2ccncc2)c2[nH]cnc2[nH]1,MIC,-,-,H37Ra,>12.8 µg/mL
C/C(=N\Nc1cc(C)c2cc(C)ccc2n1)c1ccccn1,inhibition,12.5 µg/mL,BACTEC,H37Rv,97%
CO[C@H]1/C=C/O[C@@]2(C)Oc3c(C)c(O)c4c(=O)c(c5oc6cc(N7CCN(CC(C)C)CC7)cc(=O)c6nc5c4c3=C2O)NC(=O)/C(C)=C\C=C\[C@H](C)[C@H](O)[C@@H](C)[C@@H](O)[C@@H](C)[C@H](OC(C)=O)[C@@H]1C,MBC,-,-,3113 (rifampin-sensitive),0.006 µg/mL
CN1C(=O)OC2C3NC(=O)OC3C(O)C(O)C21,MIC bound,-,BACTEC,H37Rv,>12.5 µg/mL
CC[C@H]1OC(=O)[C@H](C)[C@@H](O[C@H]2C[C@@](C)(OC)[C@@H](O)[C@H](C)O2)[C@H](C)[C@@H](O[C@@H]2O[C@H](C)C[C@H](N(C)C)[C@H]2O)[C@](C)(OC)C[C@@H](C)C(=O)[C@H](C)[C@@H](O)[C@]1(C)O,MIC,-,-,ATCC 35823,>8 µg/mL

A second listing of 11 rows from above:

SMILES | endpoint | dose | method | strain or isolate | value
O=C1NC(=O)C(c2ccc(Br)c3ccccc23)=C1O | inhibition | 12.5 µg/mL | BACTEC | H37Rv | 20%
O=c1nc(SCc2ccccc2[N+](=O)[O-])c2[nH]cnc2[nH]1 | MIC | - | - | H37Ra | 16 µg/mL
O=c1nc(SCc2cccnc2)c2[nH]cnc2[nH]1 | MIC90 | - | - | H37Rv | >6.25 µg/mL
NNC(=O)c1ccncc1 | MIC | - | resazurin | H37Rv | 0.03 µg/mL
O=C1c2cscc2C(=O)c2cscc21 | inhibition | 6.25 µg/mL | resazurin | H37Rv | 100%
NNC(=O)c1ccncc1 | MIC | - | - | 2S | 0.1 µg/mL
CO[C@H]1/C=C/O[C@@]2(C)Oc3c(C)c(O)c4c(O)c(c5c(c4c3C2=O)NC2(CCN(CC(C)C)CC2)N=5)=NC(=O)/C(C)=C\C=C\[C@H](C)[C@H](O)[C@@H](C)[C@@H](O)[C@@H](C)[C@H](OC(C)=O)[C@@H]1C | MIC | - | - | Isolate 900233 drug-susceptible | 0.125 µg/mL
COc1cccc(Sc2ncccn2)c1 | MIC90 | - | - | H37Rv | >6.25 µg/mL
COc1ccc(OC)c(CCNCCNCc2ccc(C(F)(F)F)cc2)c1 | MIC | - | - | - | 12.5 µM
C[C@@H]1CN(c2c(F)c(N)c3c(=O)c(C(=O)O)cn(C4CC4)c3c2F)C[C@H](C)N1 | MIC90 | - | - | Drug-resistant | 0.125 µg/mL
CC(C)c1ccc2c(c1)CC[C@H]1[C@](C)(CNCCNCCO)CCC[C@]21C | MIC | - | - | - | 25 µM